How the values were obtained:
Conditions in all cases: relative to M. tuberculosis MIC50
[1] = tested on: human red blood cells (RBCs); assay: Red blood cell lysis assay
[2] = tested on: THP-1 cells; assay: Cytotoxicity assay, THP-1 cells (CellTiter 96 AQueous One)
[3] = tested on: HepG2 cells; assay: Cytotoxicity assay, HepG2 cells (CellTiter 96 AQueous One)

| Structure (SMILES) | RBCs SI (HC50/MIC50) [1] | THP-1 cells SI (CC50/MIC50) [2] | HepG2 cells SI (CC50/MIC50) [3] |
| --- | --- | --- | --- |
| Cc1cc(C(=O)O)c(C)n1Cc1cccs1 [Fragment F16, 2,5-Dimethyl-1-(2-thienylmethyl)-1H-pyrrole-3-carboxylic acid] | >4.0 | 2.9 | 3.1 |
| Clc1ccc2nc(N3CCCNCC3)sc2c1 [Fragment F12, 6-Chloro-2-(1,4-diazepan-1-yl)-1,3-benzothiazole] | >5.1 | 0.6 | 0.9 |
| O=C(O)c1ccc(-c2ccccc2)s1 [Fragment F10, 5-Phenylthiophene-2-carboxylic acid] | >5.4 | 2.9 | 3.3 |
| Cc1nc(C(N)=S)c[nH]1 [Fragment F3, 2-Methyl-1H-imidazole-4-carbothioamide] | >9.5 | 8.1 | >9.5 |
| COC(=O)c1sc2ccccc2c1O [Fragment F9, Methyl 3-hydroxy-1-benzo thiophene-2-carboxylate] | >7.0 | 4.6 | 3.8 |
| O=C(O)CCc1c[nH]c2ccccc12 [Fragment F1] | >14.7 | >14.7 | >14.7 |
| CSc1cc(-c2ccc(F)cc2)n[nH]1 [Fragment F11, 3-(4-Fluorophenyl)-5-(methylsulfanyl)-1H-pyrazole] | >5.1 | 3.9 | 4.8 |
| Nc1ccc2oc3c(c2c1)CCCC3 [Fragment F5, 6,7,8,9-Tetrahydrodibenzo [b,d]furan-2-amine] | >4.1 | >4.1 | >4.1 |
| N#Cc1ccc(O)cc1F [Fragment F22, 2-Fluoro-4-hydroxybenzonitrile] | >3.3 | 2.3 | 2.9 |
| O=C(O)c1csc2ccc(Cl)cc12 [Fragment F25, 5-Chloro-1-benzothiophene-3-carboxylic acid] | 3.0 | 2.7 | 2.4 |
| CCOC(=O)c1c(N)sc(C)c1-c1ccccc1 [Fragment F19, Ethyl 2-amino-5-methyl-4-phenylthiophene-3-carboxylate] | 1.7 | 0.9 | 0.9 |
| O=c1cc(C(F)(F)F)c2ccc(O)cc2o1 [Fragment F2, 7-Hydroxy-4-(trifluoromethyl)-2H-chromen-2-one] | >4.7 | 4.1 | 4.6 |
| COC(=O)c1cc2ccccc2cn1 [Fragment F4, Methyl isoquinoline-3-carboxylate] | >5.71 | >5.71 | >5.71 |
| Cc1ccc(-c2cc(C(=O)O)c(C)o2)cc1 [Fragment F24, 2-Methyl-5-(4-methylphenyl)-3-furoic acid] | >3.2 | 2.8 | 3.1 |
| NC(=S)COc1cccc(Cl)c1 [Fragment F13, 2-(3-Chlorophenoxy) ethanethioamide] | 4.3 | 3.1 | 2.2 |
| O=C(O)c1ccc(-c2cccs2)s1 [Fragment F20, [2,2′-Bithiophene]-5-carboxylic acid] | >3.7 | 3.6 | 2.8 |
| c1ccc2c(c1)[nH]c1cnccc12 [Fragment F6, 9H-Pyrido[3,4-b]indole] |  | 2.4 | 4.9 |
| Cc1ccc2c(c1)N(CCO)C(C)(C)CC2C.O (centres unmarked) [Fragment F18, 2-(2,2,4,7-Tetramethyl-1,2,3,4-tetrahydroquinolin-1-yl)ethan-1-ol hydrate] | 1.8 | 0.9 | 0.7 |
| Cc1oc(-c2ccc(Cl)cc2)cc1C(=O)N(C)C [Fragment F8, 5-(4-Chlorophenyl)-N,N,2-trimethyl-3-furamide] | 3.2 | 1.7 | 4.4 |
| Cc1cc2cc(N)ccc2[nH]1 [Fragment F21, 2-Methyl-1H-indol-5-amine] | >3.6 | 1.5 | 1.4 |
| O=C(O)c1ccc(-c2ccsc2)cc1 [Fragment F26, 4-(3-Thienyl)benzoic acid] | >3.1 | 3.1 | 3.0 |
| OCc1csc(-c2ccc(C(F)(F)F)cc2)n1 [Fragment F28, {2-[4-(Trifluoromethyl)phenyl]-1,3-thiazol-4-yl}methanol] | 1.8 | 2.2 | >2.3 |
| Oc1noc2cc(Cl)ccc12 [Fragment F27, 6-Chlorobenzo[d]isoxazol-3-ol] | >2.5 | 2.0 | >2.5 |
| Oc1ccc(Oc2ccccc2)cc1 [Fragment F29, 4-Phenoxyphenol] | 2.1 | 0.3 | 0.5 |
| NCc1cccc(N2CCCCC2)n1 [Fragment F17, [6-(Piperidin-1-yl)pyridin-2-yl]methanamine] | >4.0 | 2.0 | 1.8 |
| Cc1n[nH]c(C)c1Oc1ccc(Cl)cc1 [Fragment F15, 4-(4-Chlorophenoxy)-3,5-dimethyl-1H-pyrazole] | 1.9 | 1.5 | 2.9 |
| CNCc1ccccc1Oc1ccccc1 [Fragment F23, Methyl[(2-phenoxyphenyl)methyl]amine] | >3.3 | 3.2 | 2.6 |

Reference: publication PMC5826148, “Whole-Cell Screen of Fragment Library Identifies Gut Microbiota Metabolite Indole Propionic Acid as Antitubercular” (Antimicrobial Agents and Chemotherapy, 2018)
